Measured values from several laboratories, pooled; numbers as filed in NIAID ChemDB.

Shared fields: tests in culture; agent: HIV-1; method: syncytia; measure: fold resistance

Lines come from different laboratories, so protocols vary.

SMILES | cells | mutations | strain | value
O=c1[nH]cnc2c1ncn2[C@H]1CC[C@@H](CO)O1 | CEM | RT-Y181C | IIIB-Nevirapine(0.1)(RT-Y181C) | 1.5
Nc1ncnc2c1ncn2CC(CF)OCP(=O)(O)O | CEM | RT-Y181C | IIIB nevirapine-resistant (RT Y181C) | 3.33
CC(C)Nc1cccnc1N1CCN(C(=O)c2cc3ccccc3[nH]2)CC1 | CEM | RT-C181I | IIIB | 95
C[C@H](Cn1cnc2c(N)ncnc21)OCP(=O)(O)O | CEM | RT-M41L V118I L210W T215Y | Clinical isolate C19 | 25.3
CC(C)=CCN1Cc2cc(Cl)cc3[nH]c(=S)n(c23)C[C@@H]1C | CEM | RT-L100I Y181C | IIIB TIBO R82913 STR-1 (RT L100I Y181C) | 200
O=C1N(Cc2ccccc2)c2cscc2S(=O)(=O)N1Cc1ccccc1 | CEM | RT-V106A | IIIB | ≥5.56
N#CCN1C(=O)N(Cc2ccccc2)S(=O)(=O)c2cscc21 | CEM | RT-Y188H | - | 50
C[C@H](COc1cc(N)nc(N)n1)OCP(=O)(O)O | CEM | RT-M41L V118I L210W T215Y | Clinical isolate C19 | 7.57
Cc1cn([C@@H]2O[C@H](CO[Si](C)(C)C(C)(C)C)C3(OS(=O)(=O)C=C3N)[C@H]2O[Si](C)(C)C(C)(C)C)c(=O)n(C)c1=O | CEM | RT-V106A | IIIB NEV(RT-V106A) | 83.3
Nc1nc2c(ncn2[C@H]2CC[C@@H](CO)O2)c(=O)[nH]1 | CEM | RT-L100I | IIIB TIBO R82150-resistant (RT L100I) | 1
CC(C)=CCN1Cc2cc(Cl)cc3[nH]c(=S)n(c23)C[C@@H]1C | CEM | RT-L100I | IIIB-TIBO(0.5)(RT-L100I) | 18.6
CCN1C(=O)N(Cc2ccccc2)S(=O)(=O)c2cscc21 | CEM | RT-Y181C | IIIB | >207
CCOCn1c(Sc2ccccc2)c(CC)c(=O)[nH]c1=O | CEM | RT-K103N | IIIB TIBO R82913-resistant (RT K103N) | 126
CCOCn1c(Sc2ccccc2)c(CC)c(=O)[nH]c1=S | CEM | RT-C181I | IIIB | 65
CCN1C(=O)N(Cc2ccccc2Cl)S(=O)(=O)c2cscc21 | MT-4 | RT-D67N K70R T215F K219Q | ADP/141 | 0.575
Nc1ncnc2c1ncn2CCOCP(=O)(O)O | CEM | RT-Y181C | IIIB-Nevirapine(1.0)(RT-Y181C) | 1.86
Cc1occc1C(=S)Nc1ccc(Cl)c(C(=O)OC2CCCC2)c1 | CEM | RT-V106A | IIIB | 8
CC(C)=CCOc1cc(NC(=S)c2ccsc2C)ccc1Cl | CEM | RT-L100I | IIIB | 278
CC(C)Nc1cccnc1N1CCN(C(=O)c2cc3ccccc3[nH]2)CC1 | CEM | RT-Y181I | Pyr/BHAP(RT-Y181I) | 165
CCn1c(=O)c(C)cn([C@@H]2O[C@H](CO[Si](C)(C)C(C)(C)C)C3(OS(=O)(=O)C=C3N)[C@H]2O[Si](C)(C)C(C)(C)C)c1=O | CEM | RT-Y181C | IIIB E-EBU(RT-Y181C) | >833
CCOCn1c(Cc2ccccc2)c(C(C)C)c(=O)[nH]c1=O | CEM | RT-E138K | IIIB | 18
Nc1cc(OCCOCP(=O)(O)O)nc(N)n1 | CEM | RT-M41L V118I L210W T215Y | Clinical isolate C19 | 6.36
CCNc1cccnc1N1CCN(C(=O)c2cc3cc(OC)ccc3[nH]2)CC1 | CEM | RT-V106A | IIIB NEV(RT-V106A) | 20
Cc1cn([C@@H]2O[C@H](CO[Si](C)(C)C(C)(C)C)C3(OS(=O)(=O)C=C3N)[C@H]2O[Si](C)(C)C(C)(C)C)c(=O)n(C)c1=O | CEM | RT-E138K | TSAO(RT-E138K) | >1875
Cc1cn([C@@H]2O[C@H](CO[Si](C)(C)C(C)(C)C)C3(OS(=O)(=O)C=C3N)[C@H]2O[Si](C)(C)C(C)(C)C)c(=O)n(C)c1=O | CEM | RT-L100I | IIIB | 1.75
CC(C)=CCN1Cc2cc(Cl)cc3[nH]c(=S)n(c23)C[C@@H]1C | CEM | RT-Y181C | IIIB | 78.3
Nc1ncnc2c1ncn2CCOCP(=O)(O)O | CEM | RT-L100I Y181C | IIIB TIBO R82913 STR-1 (RT L100I Y181C) | 3.57
Nc1ncnc2c1ncn2CCOCP(=O)(O)O | CEM | RT-S68G K70T V75I F77L K103N F116Y Q151M K219R | Clinical isolate L6.5 | 20
CC(C)=CCOc1cc(NC(=S)c2ccoc2C)ccc1Cl | CEM | RT-E138K | IIIB | 3.61
CN1C(=O)N(Cc2ccccc2)S(=O)(=O)c2cscc21 | CEM | RT-Y181C | IIIB | >141
CCc1cc(NCc2nc3c(Cl)ccc(Cl)c3o2)c(=O)[nH]c1C | CEM | RT-V179N | IIIB-Pyridinone(0.1)(RT-V179N | 6.67
Cc1occc1C(=S)Nc1ccc(Cl)c(/C=N/OC(C)(C)C)c1 | CEM | RT-V106A | IIIB | 14.55
Cc1cn([C@@H]2O[C@H](CO[Si](C)(C)C(C)(C)C)C3(OS(=O)(=O)C=C3N)[C@H]2O[Si](C)(C)C(C)(C)C)c(=O)n(C)c1=O | CEM | RT-Y181C | IIIB | 66
N#CCN1C(=O)N(Cc2ccccc2)S(=O)(=O)c2cscc21 | CEM | RT-Y188H | IIIB | ≥50
O=c1[nH]cnc2c1ncn2[C@H]1CC[C@@H](CO)O1 | CEM | RT-L100I | IIIB | 0.97
Cc1occc1C(=S)Nc1ccc(Cl)c(/C=N/OC(C)(C)C)c1 | CEM | RT-E138K | IIIB | 1.5
CCN1C(=O)N(Cc2ccccc2)S(=O)(=O)c2cscc21 | CEM | RT-Y188H | - | >111
C=C(C)OC(=O)N1c2cc(Cl)ccc2NC(=S)C1(C)C | CEM | RT-V106A | NEV(RT-V106A) | 11.4
Cc1c(Sc2ccccc2)n(COCCO)c(=O)[nH]c1=O | CEM | RT-Y188H | IIIB HEPT-resistant (RT Y188H) | ≥33.3
Cc1cn([C@@H]2O[C@H](CO[Si](C)(C)C(C)(C)C)C3(OS(=O)(=O)C=C3N)[C@H]2O[Si](C)(C)C(C)(C)C)c(=O)n(C)c1=O | CEM | RT-L100I E138K | IIIB TIBO R82913 STR-B02 (RT L100I E138K) | >1670
CCN1C(=O)N(Cc2cccc(Cl)c2)S(=O)(=O)c2cscc21 | CEM | RT-E138K | - | 8.36
Cc1cn([C@@H]2O[C@H](CO[Si](C)(C)C(C)(C)C)[C@@]3(OS(=O)(=O)C=C3N)[C@H]2O[Si](C)(C)C(C)(C)C)c(=O)[nH]c1=O | CEM | RT-L100I E138K | IIIB TIBO R82913 STR-B02 (RT L100I E138K) | 117
Cc1ccnc2c1NC(=O)c1cccnc1N2C1CC1 | CEM | RT-C181I | IIIB | >625

A second listing of 2 rows from above:

{"SMILES": "CCN1C(=O)N(Cc2ccccc2)S(=O)(=O)c2cscc21", "cells": "CEM", "mutations": "RT-Y181C", "strain": "IIIB", "value": ">207"}
{"SMILES": "Nc1ncnc2c1ncn2CC(CF)OCP(=O)(O)O", "cells": "CEM", "mutations": "RT-Y181C", "strain": "IIIB nevirapine-resistant (RT Y181C)", "value": "3.33"}

An empty or dashed field is not shown. Fold resistance: result on the changed form divided by that on wild type.